Measured values as given in publication PMC13334617.
pKd: −log10 of the molar value. Read-outs that look alike come from different tables or passages of the source.

Key:
[1] = target: ACM1-FKBP fusion, purified (Bordetella pertussis | not stated); experiment: adenylate cyclase activation titration (enzyme activity)
[2] = target: ACM1-FKBP fusion, purified (Bordetella pertussis | not stated); experiment: as above; remark: listed apart in the source

## CaM-FRB fusion, purified (FRB at the N-terminus of calmodulin)
[1]
  pKd: 6.13
[2]
  pKd: < 5.30
